Anti-infective test results gathered from many reports (values: NIAID ChemDB through PubChem).

All rows: target-level tests; agent: Hepatitis C virus

Rows are shuffled and stem from different studies. Percent inhibition refers to the dose given; in toxicity tests it is the harm to the cells. a–b is a range or a potency band. ICn: concentration for n% inhibition. An empty or dashed field is not shown.

| SMILES | target | measure | tested at | value |
|---|---|---|---|---|
| C[C@@H](C(=O)Nc1ccsc1-c1nc(C(=O)O)c(O)c(=O)[nH]1)c1ccccc1 | HCV polymerase | IC50 | - | <25 µM |
| N#CNC(=O)c1cnn2c(C3CCCCC3)c(-c3ccc(OCc4ccccc4)cc3)cnc12 | RNA-dependent RNA polymerase | IC50 | - | <1 µM |
| Cc1ccc(C(=O)N(Cc2cccc(C(F)(F)F)c2)c2cc(-c3ccccc3)sc2C(=O)O)cc1 | NS3 ATPase | IC50 | - | <5 µM |
| O=C(O)c1ccc2c(c1)nc(-c1ccc3nc(-c4ccccc4-c4ccncc4)ccc3c1)n2C1CCCCC1 | NS5B polymerase | inhibition | 33 µM | 96.18% |
| Nc1cscc1-c1nc(C(=O)O)c(O)c(=O)[nH]1 | HCV polymerase | IC50 | - | <25 µM |
| COc1ccc(-c2nc3cc(C(=O)O)nn3cc2C2CCCCC2)cc1 | RNA-dependent RNA polymerase | IC50 | - | >10 µM |
| NNc1cc(-c2ccccc2)nc2ccc(-c3nc4cc(C(=O)O)ccc4n3C3CCCCC3)cc12 | NS5B polymerase | inhibition | 100 µM | 100% |
| O=C(Nc1cscc1-c1nc(C(=O)O)c(O)c(=O)[nH]1)c1cccs1 | HCV polymerase | IC50 | - | <25 µM |
| COc1cccc(S(=O)(=O)Nc2cc(-c3ccc(CC(C)C)cc3)sc2C(=O)O)c1 | NS3 ATPase | IC50 | - | >20 µM |
| O=C(O)c1ccc2c(c1)nc(-c1ccc3nc(-c4cccc(-c5ccc(Cl)cc5)c4)ccc3c1)n2C1CCCCC1 | NS5B polymerase | inhibition | 100 µM | 99.39% |
| CNC(=O)c1c(-c2ccc(F)cc2)oc2cc(C(C)(C)NC(C)=O)c(OC)cc12 | Nonstructural protein 5B | IC50 | - | ≤0.5 µM |
| Fc1ccc(C(F)(F)F)cc1COc1ccc(-c2cnc3c(-c4nn[nH]n4)cnn3c2C2CCCCC2)cc1 | RNA-dependent RNA polymerase | IC50 | - | 1–10 µM |
| CCc1ccc(-c2ccc(OC)cc2-c2ccc3cc(-c4nc5cc(C(=O)O)ccc5n4C4CCCCC4)ccc3n2)cc1 | NS5B polymerase | inhibition | 33 µM | 103% |
| O=C(O)c1cnn2c(C3CCCCC3)c(-c3ccc(Cc4ccccc4)cc3)cnc12 | RNA-dependent RNA polymerase | IC50 | - | 1–10 µM |
| O=C(O)c1ccc2c(c1)nc(-c1ccc3nc(-c4cc(-c5ccc(Cl)c(Cl)c5)no4)ccc3c1)n2C1CCCCC1 | NS5B polymerase | inhibition | 100 µM | 102% |
| NC(CC(=O)Nc1ccsc1-c1nc(C(=O)O)c(O)c(=O)[nH]1)c1ccccc1 | HCV polymerase | IC50 | - | <25 µM |
| O=C(O)c1cc2nc(-c3ccc(OCc4cccc(C(F)(F)F)c4)cc3)c(C3CCCCC3)c(=O)n2[nH]1 | RNA-dependent RNA polymerase | IC50 | - | 1–10 µM |
| CNC(=O)c1c(-c2ccc(F)cc2)oc2cc(CN3CC(O)=C(C#N)C3=O)c(OC)cc12 | Nonstructural protein 5B | IC50 | - | ≤0.5 µM |
| Cc1ccc(CN(C(=O)C(C)C)c2cc(-c3ccccc3)sc2C(=O)O)cc1 | NS3 ATPase | IC50 | - | 5–20 µM |
| O=C(O)c1ccc2c(c1)nc(-c1ccc3nc(C(c4ccccc4)c4ccccc4)ccc3c1)n2C1CCCCC1 | NS5B polymerase | inhibition | 100 µM | 98.33% |
| CCOc1cc2c(C(=O)NC)c(-c3ccc(F)cc3)oc2cc1N(CC)S(C)(=O)=O | Nonstructural protein 5B | IC50 | - | ≤0.5 µM |
| COc1ccc(-c2ccc(C(F)(F)F)cc2)c(-c2ccc3cc(-c4nc5cc(C(=O)O)ccc5n4C4CCCCC4)ccc3n2)c1 | NS5B polymerase | inhibition | 33 µM | 98.82% |
| Cc1ccc(C(=O)N(C)c2cc(-c3ccc(C(F)(F)F)cc3)sc2C(=O)O)cc1 | NS3 ATPase | IC50 | - | <5 µM |
| CC(=O)NCc1cccc(COC(=O)Nc2ccsc2-c2nc(C(=O)O)c(O)c(=O)[nH]2)c1 | HCV polymerase | IC50 | - | <25 µM |
| O=C(O)c1cc2nc(-c3ccc(Cl)cc3)c(-c3ccccc3)cn2n1 | RNA-dependent RNA polymerase | IC50 | - | >10 µM |
| O=C(O)c1nc(-c2ccccc2NS(=O)(=O)c2ccc([N+](=O)[O-])cc2)[nH]c(=O)c1O | HCV polymerase | IC50 | - | <100 µM |
| CCC(=O)N(Cc1cccc(OC)c1)c1cc(-c2ccccc2)sc1C(=O)O | NS3 ATPase | IC50 | - | >20 µM |
| O=C(NCc1cccc(F)c1)Nc1cccc(-c2nc(C(=O)O)c(O)c(=O)[nH]2)c1 | HCV polymerase | IC50 | - | <100 µM |
| c1cncc(COc2ccc(-c3cnc4c(-c5nn[nH]n5)cnn4c3C3CCCCC3)cc2)c1 | RNA-dependent RNA polymerase | IC50 | - | 1–10 µM |
| CNC(=O)c1c(-c2ccc(F)cc2)oc2cc(N(C3CCCC3)S(C)(=O)=O)c(OC(C)C)cc12 | Nonstructural protein 5B | IC50 | - | ≤0.5 µM |

A second listing of 2 rows from above:

O=C(Nc1cscc1-c1nc(C(=O)O)c(O)c(=O)[nH]1)c1cccs1 ; target: HCV polymerase ; measure: IC50 ; value: <25 µM
N#CNC(=O)c1cnn2c(C3CCCCC3)c(-c3ccc(OCc4ccccc4)cc3)cnc12 ; target: RNA-dependent RNA polymerase ; measure: IC50 ; value: <1 µM